Anti-infective test results gathered from many reports (values: NIAID ChemDB through PubChem).

Shared fields: growth or infection tests; agent: HIV-1; read-out: inhibition

Inhibition is in % at the dose shown (toxicity tests: loss of growth or viability). An empty or dashed field is not shown. Rows are shuffled and stem from different studies.

smiles | strain | mutations | cell line | read by | setting | dose | value
O=c1[nH]cnc2c1ncn2[C@H]1CC[C@@H](CO)O1 | ddI-resistant (RT K65R/L74V/M184V) | RT-A62V V75I F77L Q151M | PBMC | p24 |  | 10 µM | 0%
Cc1cn([C@H]2C[C@H](N=[N+]=[N-])[C@@H](CO)O2)c(=O)[nH]c1=O | LAV-1 |  | HT4 + HT4-6C | syncytia |  | 0.00316 µM | 21%
Cc1cn([C@H]2C[C@H](N=[N+]=[N-])[C@@H](COP(=O)(O)OC[C@H]3OC(O)[C@H](O)[C@@H](O)[C@@H]3O)O2)c(=O)[nH]c1=O | LAV-Bru |  | U-937 | RT activity | 14 d | 25 µM | 0%
Cc1ccnc2c1NC(=O)c1cccnc1N2C1CC1 | LAV-1 |  | HT4 + HT4-6C | syncytia |  | 0.0316 µM | 51%
O=S(=O)(O)c1cc(N=C=S)ccc1CCc1ccc(N=C=S)cc1S(=O)(=O)O | GB8 |  | JM | syncytia |  | 100 µg/mL | 100%
Oc1ccc(/C=C/c2cc(O)cc(O)c2)cc1 | IIIB |  | PBMC (resting) + PBMC | p24 |  | 5 µM | 60%
Cc1cn([C@H]2C[C@H](N=[N+]=[N-])[C@@H](CO)O2)c(=O)[nH]c1=O | LAV-Bru |  | U-937 | RT activity | 7 d | 25 µM | 96%
Nc1nc(NC2CC2)c2ncn([C@H]3C=C[C@@H](CO)C3)c2n1 | SF162 R5 |  | PBL (activated) + PBL | RT activity |  | 4 µM | 94%
O=C1N(Cc2ccc(CO)cc2)[C@H](Cc2ccccc2)[C@H](O)[C@@H](O)[C@@H](Cc2ccccc2)N1Cc1ccc(CO)cc1 | H clinical isolate |  | PBMC | p24 |  | 0.18 µM | 90%
CC(C)Nc1cccnc1N1CCN(C(=O)c2cc3cc(N=CN(C)C)ccc3[nH]2)CC1 | Seropositive clinical isolate C |  | PBMC | MTT |  | 1 µM | 100%
Nc1ncnc2c1ncn2[C@H]1CC[C@@H](CO)O1 | LAV-1 |  | U-937 | virus yield |  | 100 µM | >100%
C/C(=C(/CCO)SS/C(CCO)=C(\C)N(C=O)Cc1cnc(C)nc1N)N(C=O)Cc1cnc(C)nc1N | MN |  | H9/HIV-1(MN) + H9 | p24 |  | 125 µM | 90%
O=C(O)P(=O)(O)O | IIIB |  | PBL | RT activity | 28 d | 64 µM | 94%
COc1ccccc1CN[C@H]1C2CCN(CC2)[C@H]1C(c1ccccc1)c1ccccc1 | BL-6 Primary R5 isolate |  | Macrophage + Monocytes/macrophages | RT activity |  | 0.1 µM | 50%
c1cc(CN2CCCNCCNCCCNCC2)ccc1CN1CCCNCCNCCCNCC1 | SW38 CLADE C R5 |  | PBMC | p24 |  | 0.1 µM | 0%
Cc1cn([C@H]2C[C@H](N=[N+]=[N-])[C@@H](CO)O2)c(=O)[nH]c1=O | BZ X4 |  | PBL (activated) + PBL | RT activity |  | 4 µM | 99%
Cc1cn([C@H]2C[C@H](N=[N+]=[N-])[C@@H](COP(=O)(O)OC[C@H]3OC(O)[C@@H](O)[C@@H](O)[C@@H]3O)O2)c(=O)[nH]c1=O | LAV-Bru |  | CEM | RT activity | 15 d | 25 µM | 95%
Cc1cn([C@H]2C=C[C@@H](CO)O2)c(=O)[nH]c1=O | SF162 R5 |  | PBL (activated) + PBL | RT activity |  | 4 µM | 99%
COc1ccc(CN[C@@H](C(=O)N[C@H]2c3ccccc3C[C@H]2O)[C@H](O)[C@H](Cc2ccccc2)NC(=O)[C@@H](NC(=O)OCc2ccccc2)C(C)(C)C)cc1 | A018A |  | Primary T4 cells + T4 | p24 |  | 0.11 µM | 90%

A second listing of 2 rows from above:

smiles	strain	mutations	cell line	read by	setting	dose	value
Oc1ccc(/C=C/c2cc(O)cc(O)c2)cc1	IIIB		PBMC (resting) + PBMC	p24		5 µM	60%
Nc1ncnc2c1ncn2[C@H]1CC[C@@H](CO)O1	LAV-1		U-937	virus yield		100 µM	>100%